Amino acid sequences for entries named in this document (tags omitted). Residues count along the entry.
UniProt P00642, 2-277: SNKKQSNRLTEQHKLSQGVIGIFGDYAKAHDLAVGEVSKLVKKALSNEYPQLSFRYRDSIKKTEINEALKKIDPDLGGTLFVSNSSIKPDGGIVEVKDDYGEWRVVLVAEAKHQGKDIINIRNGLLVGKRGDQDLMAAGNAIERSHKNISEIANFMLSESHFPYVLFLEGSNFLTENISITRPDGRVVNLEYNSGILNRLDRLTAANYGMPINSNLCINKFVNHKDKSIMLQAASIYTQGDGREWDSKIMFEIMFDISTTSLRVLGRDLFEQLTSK

According to patent US20100291561:

Assays:
[1] = biological target: EcoRI restriction endonuclease (UniProt P00642); test: EMSA; details: 1x NEBuffer 1, 20 min room temperature, 300 U EcoRI; product about half ssDNA and half dsDNA; purified recombinant protein; protein details: New England …; single-stranded DNA
[2] = biological target: EcoRI restriction endonuclease (UniProt P00642); test: inhibition of the protein; details: purified recombinant protein, protein details: New England Biolabs, single-stranded DNA

| Sequence | binding result [1] | functional effect of the aptamer ([2]; strong inhibitor of EcoRI cleavage of MBL, 37 C, 4 U EcoRI, dose not given here) | functional effect of the aptamer ([2]; about 40 ng aptamer per 4 U EcoRI inhibits MBL cleavage (incompletely), 1.5x EcoRI NEBuffer, 30 C, relieved by linker trigger strand) |
| --- | --- | --- | --- |
| CAAGGCCTCTCCTGATCCGACGAGCAAGTAGCTCCAAGACGAGTTCAACCCCAGAATCAGGTCGGGAGCTGAAGCTGCTT [aptamer 3 (full length, asymmetric PCR product)] | binds | active | – |
| CCGACGAGCAAGTAGCTCCAAGACGAGTTCAACCCCAGAATCAGGTCGG [aptamer 3_ADJ_L] | – | – | active |

For at least one entry, the source does not settle the construct or the ends of the probe.
